Measured values from several laboratories, pooled; numbers as filed in NIAID ChemDB.

All rows: growth or infection tests; organism: Aspergillus fumigatus; read-out: MIC

Conditions beyond the fields shown may differ between rows.

O=C(/C=C/c1ccco1)c1ccc(Cl)cc1Cl ; strain or isolate: ATCC 26934 ; result: >50 µg/mL
Cc1ccc2occ(C(c3c(O)c4ccccc4oc3=O)c3c(O)c4ccccc4oc3=O)c(=O)c2c1 ; method: agar diffusion / agar ; result: 25 µg/mL
COc1ccc(Oc2c(C3C(C#N)=C(N)OC4=C3C(=O)CC(C)(C)C4)c(C)nn2-c2ccc(C)cc2)cc1 ; strain or isolate: MTCC 3008 ; result: 500 µg/mL
COc1cc2cc(/C=C/C(=O)c3ccccc3)c(Cl)nc2cc1OC ; strain or isolate: ATCC 26934 ; result: >50 µg/mL
C[C@@H]1[C@H](O)[C@@H](C)/C=C/C=C/CC/C=C/C=C/C=C/C=C/C(O[C@H]2O[C@H](C)[C@@H](O)[C@H](N)[C@@H]2O)CC2O[C@](O)(CC(O)C(O)CCC(O)CC(O)CC(O)CC(=O)O[C@H]1C)CC(O)C2C(=O)O ; method: turbidity / visual reading ; strain or isolate: MTCC 3008 ; result: 100 µg/mL
N#CC1=C(N)Oc2c(c(=O)oc3ccccc23)C1c1cc2ccccc2nc1Sc1ccccc1 ; method: broth dilution ; strain or isolate: MTCC 3008 ; result: 1000 µg/mL
COc1ccc(C(=O)CC(c2ccc3ccccc3c2)C(C#N)C#N)c(OC)c1 ; strain or isolate: ATCC 26934 ; result: >50 µg/mL
COc1ccc2nc(Sc3ccccc3)c(C3C(C#N)=C(N)Oc4c3c(=O)oc3ccccc43)cc2c1 ; method: broth dilution ; strain or isolate: MTCC 3008 ; result: >1000 µg/mL
C[C@@H](c1ncncc1F)[C@](O)(Cn1cncn1)c1ccc(F)cc1F ; strain or isolate: NFI 4001 ; result: 2 µg/mL
Cc1ccc(Oc2c(C3C(C#N)=C(N)OC4=C3C(=O)CCC4)c(C)nn2-c2ccccc2)cc1 ; strain or isolate: MTCC 3008 ; result: 500 µg/mL
Cc1ccc(Sc2nc3ccc(C)cc3cc2C2C(C#N)=C(N)Oc3c2c(=O)oc2ccc(C)cc32)cc1 ; method: broth dilution ; strain or isolate: MTCC 3008 ; result: >1000 µg/mL
O=C(/C=C/c1ccc(Cl)cc1)c1ccc(Cl)cc1 ; strain or isolate: ATCC 26934 ; result: >50 µg/mL
Cc1ccc2nc(Sc3ccc(Cl)cc3)c(C3C(C#N)=C(N)Oc4c3c(=O)oc3ccc(C)cc43)cc2c1 ; method: broth dilution ; strain or isolate: MTCC 3008 ; result: 1000 µg/mL
O=c1oc2ccccc2c(O)c1C(c1c(O)c2ccccc2oc1=O)c1c[nH]c2ccccc12 ; method: agar diffusion / agar ; result: 50 µg/mL
CCCCCOc1ccc(-c2ccc(-c3ccc(C(=O)N[C@H]4C[C@@H](O)[C@@H](O)NC(=O)[C@@H]5[C@@H](O)[C@@H](C)CN5C(=O)[C@H]([C@H](C)O)NC(=O)[C@H]([C@H](O)[C@@H](O)c5ccc(O)cc5)NC(=O)[C@@H]5C[C@@H](O)CN5C(=O)[C@H]([C@H](C)O)NC4=O)cc3)cc2)cc1 ; method: XTT ; strain or isolate: ATCC 204305 ; result: >128 µg/mL
O=C(/C=C/c1ccc(Cl)cc1Cl)c1ccc(Cl)cc1Cl ; strain or isolate: ATCC 26934 ; result: >50 µg/mL
C[C@@H]1[C@H](O)[C@@H](C)/C=C/C=C/CC/C=C/C=C/C=C/C=C/[C@H](O[C@@H]2O[C@H](C)[C@@H](O)[C@H](N)[C@@H]2O)C[C@@H]2O[C@](O)(C[C@@H](O)[C@H](O)CC[C@@H](O)C[C@@H](O)C[C@@H](O)CC(=O)O[C@H]1C)C[C@H](O)[C@H]2C(=O)O ; strain or isolate: MTCC 3008 ; result: 100 µg/mL
COc1cc(C(=O)CC(c2cc(OC)c(OC)c(OC)c2)C(C#N)C#N)cc(OC)c1OC ; strain or isolate: ATCC 26934 ; result: >50 µg/mL
COc1ccc(O)c(C=O)c1 ; method: agar ; strain or isolate: AF293 ; result: 500 µM
O=C(/C=C/c1ccc2ccccc2c1)c1ccccc1 ; strain or isolate: ATCC 26934 ; result: >50 µg/mL
O=C1C(=O)c2ccccc2-c2ccccc21 ; method: visual reading ; strain or isolate: KACC 40080 ; result: 40 µg/mL
O=C1/C(=C/c2ccccc2)CN(C(=O)c2ccc(/C=C/C(=O)c3ccc(O)cc3)cc2)C/C1=C\c1ccccc1 ; strain or isolate: 3 clinical isolates ; result: >32 µg/mL
Cc1ccc(-n2nc(C)c(C3C(C#N)=C(N)OC4=C3C(=O)CC(C)(C)C4)c2Oc2ccc(Cl)cc2)cc1 ; strain or isolate: MTCC 3008 ; result: 250 µg/mL
CCC(C)n1ncn(-c2ccc(N3CCN(c4ccc(OC[C@H]5CO[C@](Cn6cncn6)(c6ccc(Cl)cc6Cl)O5)cc4)CC3)cc2)c1=O ; strain or isolate: NFI 4001 ; result: 1 µg/mL
COc1ccc(OC)c(C=O)c1 ; method: agar ; strain or isolate: AF293 ; result: 1500 µM

The last 2 rows once more:

| structure | method | strain or isolate | result |
|---|---|---|---|
| CCC(C)n1ncn(-c2ccc(N3CCN(c4ccc(OC[C@H]5CO[C@](Cn6cncn6)(c6ccc(Cl)cc6Cl)O5)cc4)CC3)cc2)c1=O |  | NFI 4001 | 1 µg/mL |
| COc1ccc(OC)c(C=O)c1 | agar | AF293 | 1500 µM |

An empty or dashed field is not shown.